Compound potency records, mixed from different reports. Data source: NIAID ChemDB in PubChem.

Shared fields: whole-cell or culture tests; species: HIV-1; read by: syncytia; endpoint: EC50

Blank or dashed fields: not listed here.

smiles,cells,changes,strain or isolate,value
Cc1occc1C(=S)Nc1ccc(Cl)c(OCC=C(Cl)Cl)c1,CEM,RT-E138K,TSAO-m3T-resistant (RT E138K),0.04 µg/mL
CC(C)OC(=S)Nc1ccc(Cl)c(C(=O)OC(C(C)C)C(C)C)c1,CEM,RT-E138K,,≥2.689 µM
CC1=C(C(=O)Nc2ccc(Cl)c(C(=O)OC3CCCC3)c2)SCCO1,CEM,RT-L100I,TIBO-resistant (RT L100I),2.5 µg/mL
CC(C)c1c(Sc2ccccc2)n(COCCO)c(=O)[nH]c1=O,CEM,RT-Y181I,IIIB,>10 µM
Cc1occc1C(=S)Nc1ccc(Cl)c(/C=N/OC(C)(C)C)c1,CEM,RT-Y181C,IIIB,0.214 µM
COc1ccc(NC(=S)c2ccoc2C)cc1OCC=C(Cl)Cl,CEM,RT-V106A,Nevirapine-resistant isolate (RT V106A),0.077 µg/mL
CC1=C(C(=O)Nc2cc(C(=O)OC(C)C)c(Cl)cc2F)SCCO1,CEM,,IIIB,0.65 µg/mL
CC(C)=CCOc1cc(NC(=S)c2ccsc2C)ccc1Cl,CEM,RT-Y188L,,1.9 µM
C/C=C\COc1cc(NC(=S)OC(C)C)ccc1OC,CEM,RT-V106A,,6.77 µM
COCCOC(=O)c1cc(NC(=O)C2=C(C)OCCS2)ccc1Cl,CEM,RT-L100I,TIBO-resistant (RT L100I),7.5 µg/mL
CC1=C(C(=O)Nc2ccc(Cl)c(C(=O)OC(C)C)c2)SCCO1,CEM,RT-E138K,IIIB,>61 µM
Cc1occc1C(=S)Nc1ccc(Cl)c(OCCC(C)C)c1,CEM,RT-V106A,,0.291 µM
C=CCSc1cc(NC(=S)OC(C)C)ccc1Cl,CEM,RT-Y181C,,14.34 µM
Cc1sccc1C(=S)Nc1ccc(Cl)c(C(=O)OC2CCCCC2)c1,CEM,,IIIB,0.007 µM
Cc1cccc(CS(=O)(=O)c2cccc[n+]2[O-])c1,CEM,RT-Y181C,IIIB,>20 µg/mL
CC(C)OC(=S)Nc1ccc(Cl)c(C(=O)OC2(C)COC2)c1,CEM,RT-E138K,,2.036 µM
CCOCn1c(Sc2ccccc2)c(CC)c(=O)[nH]c1=S,CEM,RT-Y188H,IIIB,>30 µM
Cc1sccc1C(=O)Nc1ccc(Cl)c(OCC=C(Cl)Cl)c1,CEM,RT-Y181C,Pyridone-resistant (RT Y181C),2.5 µg/mL
Cc1ccsc1C(=S)Nc1ccc(Cl)c(C(=O)OC2CCCCC2)c1,CEM,RT-Y181C,,0.87 µM
Cc1ccc(C)c(CSc2c(Cl)ccc[n+]2[O-])c1,CEM,,IIIB,0.05 µg/mL
Cc1ccc(C)c(CS(=O)(=O)c2cccc[n+]2[O-])c1,CEM,RT-E138K,IIIB,12 µg/mL
CC(C)OC(=O)c1cc(NC(=S)OC(C)C)ccc1Cl,CEM,RT-Y181C,IIIB,1.9 µM
Cc1cc(C)c(CS(=O)c2cccc[n+]2[O-])c(C)c1,CEM,RT-K103N,IIIB,11 µg/mL
CN1CCN(C(=O)c2ccc3c(=O)c4ccccc4[nH]c3c2)CC1,CEM,RT-L100I,,1.212 µM
CN1CCN(C(=O)c2ccc3c(=O)c4ccccc4[nH]c3c2)CC1,CEM,RT-L100I,TIBO-resistant (RT L100I),0.45 µg/mL
C/C(Cl)=C/COc1cc(NC(=O)c2ccoc2C)ccc1Cl,CEM,RT-V106A,Nevirapine-resistant isolate (RT V106A),0.15 µg/mL
CC(C)OC(=S)Nc1ccc(Cl)c(C(=O)OCC[Si](C)(C)C)c1,CEM,RT-Y181C,,4.813 µM
Cc1ccc(C)c(CS(=O)(=O)c2ccccn2)c1,CEM,RT-K103N,IIIB,>20 µg/mL
Cc1ccsc1C(=O)Nc1ccc(Cl)c(C(=O)OC2CCCCC2)c1,CEM,RT-V106A,,18 µM
Cc1sccc1C(=S)Nc1ccc(Cl)c(OCC=C(Cl)Cl)c1,CEM,RT-K103N,TIBO R82913-resistant (RT K103N),0.4 µg/mL
O=S(=O)(Cc1ccccc1I)c1cccc[n+]1[O-],CEM,,IIIB,8 µg/mL
CC[C@H](C)OC(=S)Nc1ccc(Cl)c(C(=O)OC(C)C)c1,CEM,RT-V106A,,1.213 µM
O=C(Nc1ccc(Cl)c(C(=O)OC2CCCCC2)c1)c1ccccc1F,CEM,RT-V106A,,5.3 µM
CCCCOC(=O)c1cc(NC(=O)C2=C(C)OCCS2)ccc1Cl,CEM,RT-V106A,Nevirapine-resistant (RT V106A),6 µg/mL
Cc1ccc(C)c(C(C)S(=O)(=O)c2ccc(C)c[n+]2[O-])c1,CEM,RT-L100I,IIIB,50 µg/mL
Cc1ccsc1C(=S)Nc1ccc(Cl)c(/C=N/OC(C)(C)C)c1,CEM,RT-L100I,,0.54 µM
CCOCn1c(Cc2cc(C)cc(C)c2)c(CC)c(=O)[nH]c1=O,CEM,RT-E138K,IIIB,0.009 µM
Cc1occc1C(=S)Nc1ccc(Cl)c(C(=O)OC(C)C2CC2)c1,CEM,RT-L100I,,1.7 µM
COC(=O)Oc1ccc(NC(=O)C2=C(C)OCCS2)cc1C(=O)OC(C)C,CEM,,IIIB,0.7 µg/mL
C#CCOC(=O)c1cc(NC(=S)OC(C)C)ccc1Cl,CEM,RT-Y181C,,≥32.07 µM
Cc1occc1C(=S)Nc1ccc(Cl)c(/C=N/OCC(=O)OC(C)(C)C)c1,CEM,,IIIB,20 µM
CCOC(=O)c1cc(NC(=S)OC(C)C)ccc1C,CEM,,IIIB,0.011 µM
CCCCCCCCCC[N+](C)(C)CCCNCc1c(O)cc2c(c1O)-c1cc(ccc1O)[C@H]1NC(=O)[C@@H]3NC(=O)C4NC(=O)[C@@H](Cc5ccc(c(Cl)c5)Oc5cc3cc(c5O)Oc3ccc(cc3Cl)[C@@H](O)[C@H](NC1=O)C(=O)N[C@@H]2C(=O)O)NC(=O)[C@H](N)c1ccc(O)c(c1)Oc1cc(O)cc4c1,CEM,,HE,9.5 µM
CSc1ccc(NC(=S)OC(C)C)cc1C(=O)OC(C)C,CEM,RT-L100I,,2.596 µM
CC(C)OC(=O)c1cc(NC(=S)c2cccs2)ccc1Cl,CEM,,IIIB,0.028 µM
CCOCn1c(Sc2ccccc2)c(CC)c(=O)[nH]c1=O,CEM,RT-Y181I,IIIB,1.1 µM
Cc1ccc(C)c(CS(=O)(=O)c2cccc[n+]2[O-])c1,CEM,RT-V179D,IIIB,8 µg/mL
CC(C)c1c(Sc2ccccc2)n(COCCO)c(=S)[nH]c1=O,CEM,,IIIB,0.2 µM
CCCCOC(=O)c1cc(NC(=S)OC(C)C)ccc1Cl,CEM,RT-V106A,,2.22 µM
COC(=O)c1cc(NC(=O)C2=C(C)OCCS2)ccc1Cl,CEM,RT-V106A,Nevirapine-resistant (RT V106A),>10 µg/mL
CC(C)OC(=O)c1cc(NC(=S)c2ccco2)ccc1Cl,CEM,RT-L100I,,17 µM
CCCC1=C(C(=O)Nc2ccc(Cl)c(C(=O)OC)c2)SCCO1,CEM,,IIIB,0.75 µg/mL
C/C=C/CSc1cc(NC(=S)c2ccsc2C)ccc1Cl,CEM,RT-K103N,,0.22 µM
CCC(CC)COC(=O)c1cc(NC(=S)OC(C)C)ccc1Cl,CEM,,IIIB,0.084 µM
Cc1cc(C)cc(Cc2c(C(C)C)c(=O)[nH]c(=O)n2COCCO)c1,CEM,RT-E138K,IIIB,0.53 µM
CO/N=C(\C)COc1cc(NC(=S)OC(C)C)ccc1Cl,CEM,RT-L100I,,3.023 µM
O=[N+]([O-])c1ccc[n+]([O-])c1SCc1ccccc1,MT-2,,IIIB,2.4 µg/mL
CCOCn1c(Cc2ccccc2)c(C(C)C)c(=O)[nH]c1=O,CEM,RT-K103N,IIIB TIBO R82913-resistant (RT K103N),1.3 µM
CC(C)OC(=O)c1cc(NC(=S)c2ccsc2)ccc1Cl,CEM,RT-Y181C,,22 µM
CC1=C(C(=O)Nc2ccc(Cl)c(C(=O)OC(C)C)c2)SCCO1,CEM,,IIIB,0.0421 µM
C/C(Cl)=C/COc1cc(NC(=S)c2ccoc2C)ccc1Cl,CEM,RT-V106A,Nevirapine-resistant isolate (RT V106A),0.012 µg/mL
CC(C)OC(=O)c1cc(NC(=S)c2ccccc2N)ccc1Cl,CEM,RT-Y181C,,15 µM
CC(C)OC(=O)c1cc(NC(=S)N(C)C(C)C)ccc1Cl,CEM,RT-E138K,,>30.32 µM
CC(C)OC(=O)c1cc(NC(=S)OC(C)C)ccc1Cl,CEM,RT-Y181C,IIIB,1.9 µM
CC(C)OC(=O)c1cc(NC(=S)OCC2(C)COC2)ccc1Cl,CEM,,IIIB,>27.94 µM
Cc1occc1C(=O)Nc1ccc(Cl)c(SCC=C(Cl)Cl)c1,CEM,RT-Y188H,HEPT-resistant (RT Y188H),2 µg/mL
CC(C)OC(=S)Nc1ccc(Cl)c(C(=O)OCC2CC2)c1,CEM,RT-Y181C,,4.27 µM
C/C=C/COc1cc(NC(=S)c2ccn(C)c2C)ccc1Cl,CEM,RT-E138K,,1.5 µM
C=CCOC(=S)Nc1ccc(Cl)c(C(=O)OC(C)C)c1,CEM,RT-E138K,,7.01 µM
CCOCn1c(Sc2cc(C)cc(C)c2)c(CC)c(=O)[nH]c1=S,CEM,RT-Y188H,IIIB,8.6 µM
Cc1occc1C(=S)Nc1ccc(Cl)c(/C=N/OC2CCCC2)c1,CEM,,IIIB,0.25 µM
CCC1=C(C(=O)Nc2ccc(Cl)c(C(=O)OCC(C)C)c2)SCCO1,CEM,RT-E138K,TSAO-resistant (RT E138K),0.5 µg/mL
CCc1c(Sc2ccccc2)n(COCc2ccccc2)c(=S)[nH]c1=O,CEM,RT-Y181C,IIIB,0.39 µM

A second listing of 6 rows from above:

{"smiles": "Cc1cc(C)c(CS(=O)c2cccc[n+]2[O-])c(C)c1", "cells": "CEM", "changes": "RT-K103N", "strain or isolate": "IIIB", "value": "11 µg/mL"}
{"smiles": "C/C(Cl)=C/COc1cc(NC(=O)c2ccoc2C)ccc1Cl", "cells": "CEM", "changes": "RT-V106A", "strain or isolate": "Nevirapine-resistant isolate (RT V106A)", "value": "0.15 µg/mL"}
{"smiles": "CC(C)OC(=O)c1cc(NC(=S)c2ccsc2)ccc1Cl", "cells": "CEM", "changes": "RT-Y181C", "value": "22 µM"}
{"smiles": "CC(C)OC(=O)c1cc(NC(=S)N(C)C(C)C)ccc1Cl", "cells": "CEM", "changes": "RT-E138K", "value": ">30.32 µM"}
{"smiles": "Cc1ccc(C)c(CS(=O)(=O)c2cccc[n+]2[O-])c1", "cells": "CEM", "changes": "RT-E138K", "strain or isolate": "IIIB", "value": "12 µg/mL"}
{"smiles": "C/C=C/CSc1cc(NC(=S)c2ccsc2C)ccc1Cl", "cells": "CEM", "changes": "RT-K103N", "value": "0.22 µM"}

Rows are shuffled and stem from different studies. ECn: concentration that inhibits the pathogen or its effect by n%.